Target: A/California/07/2009 H1 trimer (biotinylated, for BLI) (Influenza A virus A/California/07/2009 …, UniProt C3W5X2, strain, biotin on the avi tag (BirA))
Settings: both partners purified

B1: 09–1B12-UCA Fab (Lys-C digest of recombinant IgG, used for BLI) (Fab, V domains shown)
VH: QVQLVQSGAEVKKPGASVKVSCKASGYTFTSYGISWVRQAPGQGLEWMGWISAYNGNTNYAQKLQGRVTMTTDTSTSTAYMELRSLRSDDTAVYYCARGLLQGVVILDSYYYTMDVWGQGTTVTVSS
VL: not shown
B1: no binding.

Source: article PMC11096021 (Immunity, 2024)
